The values below come from PMC5384747, “Characterization and mutational analysis of a nicotinamide mononucleotide deamidase from Agrobacterium tumefaciens showing high thermal stability and catalytic efficiency” (PLoS ONE, 2017).

For the data set, the system named is NC(=O)c1ccc[n+]([C@@H]2O[C@H](COP(=O)(O)O)[C@@H](O)[C@H]2O)c1. In words: purified protein. To be noted: 50 mM sodium phosphate pH 7.5, 37 °C.
In general, Km refers to the concentration of substrate that gives half-maximal velocity. The kcat is the number of substrate molecules converted per active site and unit of time at saturation. In general, kcat/Km refers to the second-order rate constant that governs catalysis at low substrate concentration. In the case of “AtCinA (NMN deamidase) (Agrobacterium fabrum str. C58; C32A)”, the Km worked out at 28 ± 3 µM, the kcat worked out at 7.3 s⁻¹ and the kcat/Km came to 260000 M⁻¹ s⁻¹.

“AtCinA (NMN deamidase) (Agrobacterium fabrum str. C58; S48A)”: the Km is 51 ± 3 µM, the kcat was found to be 8.7 s⁻¹ and the kcat/Km came out at 171000 M⁻¹ s⁻¹.

With “AtCinA (NMN deamidase) (Agrobacterium fabrum str. C58; T105A)”, the Km came out at 158 ± 14 µM, the kcat was found to be 3.5 s⁻¹ and the kcat/Km was 22100 M⁻¹ s⁻¹.

With “AtCinA (NMN deamidase) (Agrobacterium fabrum str. C58; Y58F)”, the Km came to 1930 ± 50 µM, the kcat was determined as 1.5 s⁻¹ and the kcat/Km turned out to be 800 M⁻¹ s⁻¹.
